Measured values: US20200002405A1

Tests used:
[1] = molecular target: LCMV ARM strain GP (LCMV, Armstrong strain) (UniProt P09991); test: cell-based or functional assay
[2] = molecular target: LASV A19 (lineage II) glycoprotein (Lassa virus, strain A19); test: cell-based or functional assay
[3] = molecular target: LASV Pinneo (lineage I) glycoprotein (Lassa virus, strain Pinneo); test: cell-based or functional assay
[4] = molecular target: LASV 237 (lineage III) glycoprotein (Lassa virus, strain 237); test: cell-based or functional assay
[5] = molecular target: LASV Josiah (lineage IV) glycoprotein, full-length GP (Lassa virus, Josiah strain) (UniProt P08669); test: cell-based or functional assay
[6] = molecular target: LASV Josiah (lineage IV) glycoprotein, full-length GP (Lassa virus, Josiah strain) (UniProt P08669); test: cell-based or functional assay; remark: listed apart in the source
[7] = molecular target: LASV GPCysR4 (Lassa virus) (UniProt P08669)

8.9F (antibody)
IC50 (neutralization) [1]: > 10 µg/mL
IC80 (neutralization) [1]: > 10 µg/mL

8.11G (antibody)
IC50 (neutralization) [1]: > 10 µg/mL
IC80 (neutralization) [1]: > 10 µg/mL

9.8A (antibody)
IC50 (neutralization) [1]: 0.112 µg/mL
IC80 (neutralization) [1]: 0.248 µg/mL

10.4B (antibody)
IC50 (neutralization) [1]: > 10 µg/mL
IC80 (neutralization) [1]: > 10 µg/mL

12.1F (antibody)
IC50 (neutralization) [1]: 0.167 µg/mL
IC80 (neutralization) [1]: 0.265 µg/mL

12.1F (antibody; modification not given)
IC50 (neutralization) [2]: 0.463 µg/mL
IC80 (neutralization) [2]: 2.27 µg/mL
IC50 (neutralization) [3]: 0.285 µg/mL
IC80 (neutralization) [3]: 0.692 µg/mL
IC50 (neutralization) [4]: 0.146 µg/mL
IC80 (neutralization) [4]: 0.458 µg/mL
IC50 (neutralization) [5]: 0.158 µg/mL
IC80 (neutralization) [5]: 0.562 µg/mL
IC50 (neutralization) [6]: 0.172 µg/mL
IC80 (neutralization) [6]: 0.258 µg/mL

18.5C (antibody)
IC50 (neutralization) [1]: 2.21 µg/mL
IC80 (neutralization) [1]: 4.83 µg/mL

36.1F (antibody)
IC50 (neutralization) [1]: > 10 µg/mL
IC80 (neutralization) [1]: > 10 µg/mL

36.1F (antibody; modification not given)
IC50 (neutralization) [2]: > 20 µg/mL
IC80 (neutralization) [2]: > 20 µg/mL
IC50 (neutralization) [3]: > 20 µg/mL
IC80 (neutralization) [3]: > 20 µg/mL
IC50 (neutralization) [4]: > 20 µg/mL
IC80 (neutralization) [4]: > 20 µg/mL
IC50 (neutralization) [5]: 0.248 µg/mL
IC80 (neutralization) [5]: 0.755 µg/mL
IC50 (neutralization) [6]: 0.132 µg/mL
IC80 (neutralization) [6]: 0.206 µg/mL

36.9F (antibody)
IC50 (neutralization) [1]: 0.591 µg/mL
IC80 (neutralization) [1]: 3.33 µg/mL

37.2D (antibody)
IC50 (neutralization) [1]: 0.518 µg/mL
IC80 (neutralization) [1]: 2.36 µg/mL

37.2G (antibody)
IC50 (neutralization) [1]: 0.525 µg/mL
IC80 (neutralization) [1]: 2.46 µg/mL

37.7H (antibody)
IC50 (neutralization) [1]: > 10 µg/mL
IC80 (neutralization) [1]: > 10 µg/mL

Fab 37.7H
surface of GP buried [7]: 1620 Å^2
surface of GP buried at site A [7]: 1000 Å^2
surface of GP buried at site B [7]: 620 Å^2

Read-outs that look alike come from different tables or passages of the source.
